In assay [1] the target is triple mutant toxin B (SEQ ID NO: 6), genetic, not chemically treated (C. difficile strain 630).
The target of assay [2] is Control, recombinant triple mutant toxin B (SEQ ID NO: 6) (Clostridium difficile 630).

This is an account of results in US20210024903A1, “Compositions and methods relating to a mutant clostridium difficile toxin” (Pfizer, published 2021).

B1: B8-26 mAb (antibody, V domains shown)
VH: QVQLQQPGAELVKPGAPVKLSCKASGYSFTSYWMNWVKQRPGRGLEWIGRIDPSNSEIYYNQKFKDKATLTVDKSSSTAYIQLSSLTSEDSAVYYCASGHYGSIFAYWGQGTTLTVSS
VL: VQITQSPSYLAASPGETITINCRASKSISKYLAWYQEKPGKTNKLLLYSGSTLQSGIPSRFSGSRSGTDFTLIISSLEPEDSAMYYCQQHNEYPLTFGAGTKLELKR
B1: the binding result in assay [1] was “binds”.

B2: B8-26 (antibody, V domains shown)
VH: B1 VH
VL: B1 VL
As for B2, the binding result in assay [2] is recorded as “binds”.
